Human monoclonal antibodies against the spike receptor-binding domain (heavy:light variable regions). IC50 against pseudoviruses bearing the spike of naturally observed variants; lower = stronger; >10 µg/ml means not reached at the top dose. No active / inactive call. The stated detection limit is 0.0005 µg/ml; values near or below 0.001 µg/ml lie at the floor of the assay.
B1: BD56-141 (protein)
chain 1: EVQLVESGGGLVQPGGSLRLSCAASGFTFPSYALSWVRQAPGKGLEWVSALSVSGDNTYYADSVKGRFTISRDNSKSTLYLQMNSLRAEDTAFYYCALIPDRGRWLNLNWFDPWGQGTLVTVSS
chain 2: EIVLTQSPDTLSLSPGERATLSCRASQTVSGYLAWYQQRPGQAPRLLIYDASNRAPGIPTRFSGSGSGTDFTLTISSLEPEDFAVYYCQQSSSFGPGTKVDIK
B2: BD56-142 (protein)
chain 1: EVQLEESGGGLVQPGGSLRLSCAASGFTFSTYDMHWVRQVTGKGLEWVSTIGTAGDTYYPGSVKGRFTVSRENAKNSLYLQMNSLRTGDTAVYYCARVEYTYDNLYWYIDLWGRGTLVTVSS
chain 2: DIQMTQSPSSLSASVGDRVTITCRASQSVGRYLNWYQQKPGKAPKLLIYTASSLQTGVPSRFSGSGSGTDFTLTISSLQPEDFATYYCQQSYTNPHYSFGLGTKLEVK
B3: BD56-146 (protein)
chain 1: EVQLVESGGGFVQPGRSLRLSCAASGFIFDDYAMHWVRQTPGKGLEWVSGITWNGGTIGYADSVKGRFFISRDNAKNSLYLQMIRLRAEDTALYYCAKDLRRGPSLTTEEYFFHSWGQGTLVIVSS
chain 2: SYVLTQPLSVSVAPGKTARITCGGNNIGSKTVHWYHQKPGQAPVLVVYHNSDRPSGIPERFSGSNSGNTATLTISRVEAGDEADYYCQMWDGTTDHVVFGGGTKLTVL
B4: BD56-148 (protein)
chain 1: EVQVVESGGGLVKPRGSLRLSCAASGFTFSDAWMNWVRQAPGKGLEWVGHIKSETDGGTTDYAAPVKGRFTILRDDSKNTVYLQMNSLKTEDTAVYYCTVSDVLRYYDYGLDVWGQGTTVTVSS
chain 2: DIQMTQSPSTLSASVGDRVIITCRASQSISNWLAWYQQKPGKAPKLLIYKASSLQSGVPSRFSGSGSGTEFTLTISSLQPDDFATYYCQQYNSYLYTFGQGTKLEI
B5: BD56-150 (protein)
chain 1: QVHLVESGGSVVQPGKSLRLSCAASGFNFNLYGMHWVRQAPGKGLEWVSLIWYDGTNEYYGDSVKGRFTISRDNSKNTLYLQINSLRVEDTAVYYCARDQASYDVVAGTSPYFDYWGQGTLVTVSS
chain 2: YELTQPPSVSVSPGQTARITCSGDILSSQNACWYQQKPGQAPVLMIYKNTERPSGIPERFSGSSSGTTVTLTVSGVQAEDEADYYCQSTDTSATYAVFGGGTQLTVL
B6: BD56-152 (protein)
chain 1: EVQLVESGGGLVQPGRSLRLSCAASGFIFEDYAMHWVRQVPGKGLEWVSGISWNSGTIGYADSVKGRFIISRDNAKNSLYLHMSRLRAGDTAFYYCAKDPSFRDSVTYTFSFDSWGQGSLVTVSS
chain 2: SSVLTQPPSVSVAPGETAKITCGGSNVGSKSVHWYQQKPGQAPVLVIQYDSDRPSGIPERFSGSHSGSTAALTITRVEAGDEADYFCQVWDNNRDQVVFGGGTKLTVL
B7: DH1126 (protein)
chain 1: EVQLVESGGGLIQPGGSLRLSCAASGFIVSSNYMSWVRQAPGKGLEWVSLIYSGGSTFYADSVKGRFTISRDNSKNTLYLQMNSLRAEDTAVYYCARDLQQLGIDYWGQGTLVTVSS
chain 2: DIQMTQSPSSVSASVGDRVTITCRASQGISSWLAWYQQKPGKAPKLLIYSASSLQSGVPSRFSGSGSGTDFTLTISSLQPEDFATYYCQQTNSFPYFGQGTRLDIK
B8: BD56-159 (protein)
chain 1: QVQLQESGPGLVKPSETLSLTCTVSGASISSYYWTWIRQPPEKGLEWIGHIFYSGSTSINPSLRRRVTMSVDTSKDQVSLKLRSVTAADTAVYYCAGYYNDSTGYDYGFDPWGQGTRVTVSS
chain 2: DIQMTQSPSSLSASVGDRVTITCRASQSIRSYLHWYQQRPGKAPKLLIYAASTLQSGVPSRFSGSASGTDFTLTISSLQPEDFATYYCQQSYSAPLTFGGGTKVEIK
B9: BD56-160 (protein)
chain 1: QVQLVQSGAEVKKPGASVKVSCKASGYTFSNYGITWVRQAPGQGLEWMGWISAYDGYTKSAQNFQGRVTMTTDTSTSTAYMELRSLRSDDTAVYYCARDLEASDYYDSSRNLDYWGQGTLVTVSS
chain 2: SYDLTQPSSVSVSPGQTARITCSGDILAKNYVRWFQQKPGQAPVLVIYKDSERPSGIPERFSGSSSGTTVTLTISGAQVEDEADYYCYSAADNHRVFGGGTKLTVL
B10: BD56-161 (protein)
chain 1: VQLVQSGAEVKKPGASVKLSCKASGYTFTKYNMHWVRQAPGQGLEWLGMINPSGGSTTYAQKFQGRVTMTRDTSTSTVYVELGSLRSEDTAVFYCARGSHSDTGAFNPDAFDIWGQGTMVTVSS
chain 2: SYRLTQPPSVSVAPGKTARITCGGDSVGSKNVHWYQQKPGQAPVLVIYYDNDRPSGIPERFSGSNSGNTATLTISRVEAGDEADYYCQVWDIGVVFGGGTKLTVL
B11: BD56-163 (protein)
chain 1: QVQLVQSGAEVEKPGASVKVSCKASGYTFTSYGINWVRQAPGQGLEWMGWISTFNGDTNYAQKVQGRVTMTTDTSTTTAYMELRSLRSDDTAVYYCARENTYYSDSSAYYFDNWGQGTLVTVSS
chain 2: EIVMTQSPATLSVSPGERATLSCRASQSVTSNLVWYQQKPGQAPRLLIYGASTRATGIPARFSGSGSGTEFTLTISSLQSEDFGVYYCQQYDNWPPMYTFGQGTKLEIK
B12: BD56-169 (protein)
chain 1: EVQLLGSGGGLVQPGRSLRLSCAASGFRFDEYAMHWARQAPGKGLEWVAGISWNGGSIGYADSVKGRFTISRDNAKNSLWLQMNSLRAEDTALYYCAKGPDSGSFAWQIDHWGQGTLVTVSS
chain 2: DIQMTQSPSSVSASVGDRVTITCRASQDIGEWLAWYQQRPGKAPKVLICGASSLQSGVPSRFSGSGSGTDFTLTISSLQPEDFATYYCQQASNFPLTFGGGTKVEIK

Key:
Test in all cases: pseudovirus neutralization IC50; higher = weaker neutralization
[1] = molecular target: SARS-CoV-2 Omicron BA.1 spike pseudovirus
Experimental: (§1)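 Single-round VSV luciferase pseudovirus mixed with antibody dilutions for 1 h and put on Huh-7 cells for about a day; IC50 from the dose curve.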

[2] = molecular target: SARS-CoV-2 Omicron BA.2 spike pseudovirus
Experimental: as §1

[3] = molecular target: SARS-CoV-2 Omicron BA.2.75 spike pseudovirus
Experimental: as §1

[4] = molecular target: SARS-CoV-2 Omicron BA.5 spike pseudovirus
Experimental: as §1

[5] = molecular target: SARS-CoV-2 Omicron BQ.1.1 spike pseudovirus
Experimental: as §1

[6] = molecular target: SARS-CoV-2 Omicron XBB spike pseudovirus
Experimental: as §1

[7] = molecular target: SARS-CoV-2 early D614G spike pseudovirus
Experimental: as §1

| Binder | pseudovirus neutralization IC50 [1] [µg/mL] | pseudovirus neutralization IC50 [2] [µg/mL] | pseudovirus neutralization IC50 [3] [µg/mL] | pseudovirus neutralization IC50 [4] [µg/mL] | pseudovirus neutralization IC50 [5] [µg/mL] | pseudovirus neutralization IC50 [6] [µg/mL] | pseudovirus neutralization IC50 [7] [µg/mL] |
| --- | --- | --- | --- | --- | --- | --- | --- |
| B1 | > 10 | > 10 | > 10 | > 10 | > 10 | > 10 | > 10 |
| B2 | > 10 | > 10 | > 10 | > 10 | > 10 | > 10 | > 10 |
| B3 | 0.0187 | 0.0179 | 0.00998 | 1.29 | > 10 | > 10 | 0.00338 |
| B4 | 1.31 | 2.59 | 1.13 | 1.33 | 4.89 | 5.73 | 5.17 |
| B5 | 0.689 | 0.592 | 0.424 | 0.658 | 1.47 | 1.36 | > 10 |
| B6 | 0.0223 | 0.018 | 0.0164 | 1.98 | > 10 | > 10 | 0.0221 |
| B7 | > 10 | > 10 | > 10 | > 10 | > 10 | > 10 | 0.0616 |
| B8 | > 10 | > 10 | > 10 | > 10 | > 10 | > 10 | > 10 |
| B9 | > 10 | > 10 | > 10 | > 10 | > 10 | > 10 | > 10 |
| B10 | 1.44 | 2.33 | 1.81 | > 10 | > 10 | > 10 | > 10 |
| B11 | 0.879 | 1.07 | 1.53 | 0.881 | 7.68 | 7.68 | 1.08 |
| B12 | 2.11 | 1.79 | 2.35 | 1.83 | 6.87 | 5.68 | 3.55 |
